Measured values from several laboratories, pooled; numbers as filed in NIAID ChemDB.

Shared fields: growth or infection tests; species: HIV-1; read-out: EC50

ECn is the concentration giving n% inhibition of infection, replication or growth.

SMILES	method	mutations	cells	strain or isolate	result
CCC(NC(=O)c1ccccc1SSc1ccccc1C(=O)NC(CC)C(=O)O)C(=O)O	cytopathic effect / XTT	-	CEM	IIIB	25 µM
CCOCn1c(Sc2ccccc2)c(C(C)C)c(=O)[nH]c1=S	syncytia	Nevirapine resistant (RT Y181C)	CEM	IIIB	0.16 µM
O=C(COc1ccc(Cl)cc1C(=O)c1ccccc1)Nc1ccccc1	cytopathic effect	-	MT-4	RF	0.001 µM
CCc1c(Cc2cc(C)cc(C)c2)n(COC/C(C)=C/c2ccccc2)c(=O)[nH]c1=O	cytopathic effect / MTT	RT-K103N Y181C	MT-4	NNRTI-resistant (RT K103N Y181C) A17	4 µM
CC[C@H](C)[C@@H](/C=C/C(=O)O)NC(=O)c1ccccc1SSc1ccccc1C(=O)N[C@H](/C=C/C(=O)O)[C@@H](C)CC	cytopathic effect / XTT	-	CEM	IIIB	5 µM
Cc1cc(OCCCN(C)C)ccc1NC(=O)Cc1ccc(Cl)cc1C(=O)c1ccccc1	p24	-	C8166	RF	0.0062 µM
Cc1ccc(C(C)S(=O)(=O)c2c(C)ccc[n+]2[O-])c(C)c1	syncytia	-	CEM	MN	36 µg/mL
CCOCn1c(Sc2ccccc2)c(CC)c(=O)[nH]c1=O	syncytia	Nevirapine resistant (RT Y181C)	CEM	IIIB	0.65 µM
C=CCCc1cccc(Cc2[nH]c(=O)[nH]c(=O)c2CC)c1	cytopathic effect / MTT	-	MT-4	IIIB	>66 µM
Nc1ncnc2c1ncn2[C@H]1C=C[C@@H](OCP(=O)(O)O)O1	cytopathic effect	RT-K65R	MT-2	-	6.09 µM
COc1cc2c(cc1Cc1cccc(Cl)c1F)c(=O)c(C(=O)O)cn2[C@H](CO)C(C)C	RT activity	E138K	PM1	NL4-3	0.0007 µM
CC(C)CN(C[C@@H](O)[C@H](Cc1ccccc1)NC(=O)[C@@H](NC(=O)CNC(C)(C)c1cccc(F)c1)C(C)(C)C)S(=O)(=O)c1ccc2ncccc2c1	-	-	MT-2	RF	<1 µM
CCCc1c(Cc2cccc3ccccc23)n(COCCO)c(=O)[nH]c1=O	-	-	MT-4	LAV	4.78 µM
Cc1ccc(C)c(C(Cl)S(=O)(=O)c2cc(C)cc[n+]2[O-])c1	syncytia	-	CEM	HE	≥4 µg/mL
Cc1ccc(C)c(C(Cl)S(=O)(=O)c2cc(C)cc[n+]2[O-])c1	cytopathic effect	RT-Y181C	CEM	-	>4 µg/mL
C=CCOc1cccc(Cc2c(CC)c(=O)n(COCC)c(=O)n2COCC)c1	cytopathic effect / MTT	-	MT-4	IIIB	>20 µM
CCC(C)[C@H](NC(=O)CNC(C)(C)c1cccc(F)c1)C(=O)N[C@@H](Cc1ccccc1)[C@H](O)CN(CC(C)C)S(=O)(=O)c1ccc2ncccc2c1	-	-	MT-2	RF	<1 µM
Cc1ccc(C)c(C(C)S(=O)(=O)c2c(C)ccc[n+]2[O-])c1	syncytia	-	MT-2	IIIB	0.2 µg/mL
CC(C)C[C@H](NC(=O)c1ccccc1SSc1ccccc1C(=O)N[C@@H](CC(C)C)C(N)=O)C(N)=O	cytopathic effect / XTT	-	CEM	IIIB	6.5 µM
C[C@H]1[C@H](O)[C@@H](C)/C=C/C=C/C=C/C=C/C=C/C=C/C=C/[C@H](O[C@@H]2O[C@H](C)[C@@H](O)[C@H](N)[C@@H]2O)C[C@@H]2O[C@](O)(C[C@@H](O)C[C@@H](O)CC[C@H](O)[C@@H](O)C[C@@H](O)CC(=O)O[C@H]1C)C[C@H](O)[C@H]2C(=O)O	p24 / RT activity	-	PBMC	MDR807 Primary isolate X4 (SI)	0.9 µM
COC(=O)c1c(C)cc(=O)c(O)c(O)c1O	cytopathic effect / absorbance	-	CEM-SS	RF	>50 µM
CCOCn1c(Sc2ccccc2)c(CC)c(=O)[nH]c1=S	syncytia	RT-Y181C	CEM	IIIB	1.5 µM
CCn1cc(C(=O)O)c(=O)c2cc(F)c(N3CCN(c4ccccc4OC)CC3)c(OC(F)F)c21	p24	-	OM-10.1	-	0.05 µM
CN1N=C(N)c2cn([C@@H]3O[C@H](COP(=O)(O)O)[C@@H](O)[C@H]3O)c3ncnc1c23	p24	-	PBL	IIIB	>10 µM
CC1=C(C(=O)Nc2ccc(Cl)c(C(=O)OC(C)C)c2)SCCO1	syncytia	RT-V179D	CEM	IIIB	0.94 µM
Cc1ccc(C)c(CS(=O)(=O)c2cccc[n+]2[O-])c1	syncytia	RT-E103K	CEM	IIIB	12 µg/mL
Cc1c(-c2c([C@H](OC(C)(C)C)C(=O)O)cnc3ccccc23)cc(F)c2c1CCCO2	-	-	MT-2	-	0.1 µM
Cc1ccc(C)c(CS(=O)(=O)c2cccc[n+]2[O-])c1	cytopathic effect	-	CEM	RF	7.2 µg/mL
CC(C)CN(C[C@@H](O)[C@H](Cc1ccccc1)NC(=O)[C@@H](NC(=O)CNC(C)(C)c1ccccc1)C(C)(C)C)S(=O)(=O)c1ccc2ncsc2c1	-	-	MT-2	RF	<1 µM
O=C(c1ccccc1)c1cc(Cl)ccc1OCc1nc2ccccc2[nH]1	p24	-	C8166	RF	0.0821 µM
Cc1occc1C(=S)Nc1ccc(Cl)c(/C=N/OC(C)(C)C)c1	syncytia	RT-V179D	CEM	IIIB	0.48 µM
O=C(O)CCCCCNC(=O)c1ccccc1SSc1ccccc1C(=O)NCCCCCC(=O)O	cytopathic effect / XTT	-	CEM	IIIB	1.8 µM
Cc1ccc(C)c(C(C)S(=O)(=O)c2ccc(C)c[n+]2[O-])c1	syncytia	-	CEM	HE	40 µg/mL
COc1cc(-c2ccc(N=Nc3ccc4c(S(=O)(=O)O)cc(S(=O)(=O)O)c(N)c4c3O)c(OC)c2)ccc1N=Nc1ccc2c(S(=O)(=O)O)cc(S(=O)(=O)O)c(N)c2c1O	RT activity	-	CEM + CEM-SS	MN	0.9 µM
O=C(O)CC[C@H](CC1CCCCC1)NC(=O)c1ccccc1SSc1ccccc1C(=O)N[C@H](CCC(=O)O)CC1CCCCC1	cytopathic effect / XTT	-	CEM	IIIB	>8.5 µM
O=[N+]([O-])c1ccc[n+]([O-])c1SCc1ccccc1	syncytia	RT-Y181C	CEM	IIIB	≥20 µg/mL
COC(=O)[C@H](CC(C)C)NC(=O)c1ccccc1SSc1ccccc1C(=O)N[C@@H](CC(C)C)C(=O)OC	cytopathic effect / XTT	-	CEM	IIIB	>100 µM
CCN(CC)CCOc1ccc(NC(=O)COc2ccccc2C(=O)c2ccc(OC)cc2)cc1	cytopathic effect	-	MT-4	RF	0.777 µM
CC1(C)CC=C(c2cn(-c3nccc(C(=O)NC4CCC(N5CC6CCC(C5)O6)CC4)n3)c3ccc(F)c([C@H](OC(C)(C)C)C(=O)O)c23)CC1	luminescence	E138K/Q148K	MT-4	NL4-3	0.0029 µM
CC(C)CN(C[C@@H](O)[C@H](Cc1ccccc1)NC(=O)[C@@H](NC(=O)CNC(C)(C)c1cccc(F)c1)C(C)C)S(=O)(=O)c1ccc2ncsc2c1	-	-	MT-2	RF	<1 µM
Cc1ccccc1CNC(=O)COc1ccc(Cl)cc1C(=O)c1ccccc1	p24	-	C8166	RF	0.0813 µM
Cc1ccc(C)c(CSc2c(Cl)ccc[n+]2[O-])c1	syncytia	RT-L100I	CEM	IIIB	0.2 µg/mL
COc1ccccc1N1CCN(c2c(F)cc3c(=O)c(C(=O)O)cn(C)c3c2CN(C)C)CC1	p24	-	OM-10.1	-	0.2 µM
Nc1nc2c(ncn2CCOCP(=O)(O)O)c(=O)[nH]1	plaque count	-	-	-	0.01 µM
CC(C)[C@@H](/C=C/C(=O)O)NC(=O)c1ccccc1SSc1ccccc1C(=O)N[C@H](/C=C/C(=O)O)C(C)C	cytopathic effect / XTT	-	CEM	IIIB	4.8 µM
CCOCn1c(Cc2cccc3ccccc23)c(CC)c(=O)[nH]c1=O	-	-	CEM	LAV	0.104 µM
C[C@H](Cn1cnc2c(N)ncnc21)OCP(=O)(O)O	-	HX	TZM-bl	-	3 µM
CCc1c(Sc2cc(C)cc(C)c2)n(COCCO)c(=O)[nH]c1=O	syncytia	RT-L100I	CEM	IIIB (TIBO 82150) (RT-L100I)	0.02 µM
CCCc1c(Cc2cc(C)cc(C)c2)n(COC2C=CCCC2)c(=O)[nH]c1=O	cytopathic effect / MTT	RT-Y181C	MT-4	NNRTI-resistant (RT Y181C) N119	>100 µM
CCCc1c(Cc2ccc3ccccc3c2)n(COCc2ccccc2)c(=O)[nH]c1=O	-	-	CEM	LAV	>9.657 µM
CCc1c(Cc2cc(C)cc(C)c2)n(COC/C=C/c2ccccc2)c(=O)[nH]c1=O	cytopathic effect / MTT	RT-K103N Y181C	MT-4	NNRTI-resistant (RT K103N Y181C) A17	10 µM
CCc1c(Sc2ccccc2)n(COCc2ccccc2)c(=S)[nH]c1=O	syncytia	RT-Y181C	CEM	IIIB	0.39 µM
O=C(O)C[C@H](CC1CCCCC1)NC(=O)c1ccccc1SSc1ccccc1C(=O)N[C@H](CC(=O)O)CC1CCCCC1	cytopathic effect / XTT	-	CEM	IIIB	6.4 µM
CCc1c(Cc2ccc3ccccc3c2)n(COCc2ccccc2)c(=O)[nH]c1=O	-	-	CEM	LAV	3.324 µM
COC(=O)c1cc(=O)c(O)c(OC)cc1C	cytopathic effect / absorbance	-	CEM-SS	RF	>50 µM
CCOCn1c(Cc2cccc3ccccc23)c(C(C)C)c(=O)[nH]c1=O	-	-	MT-4	LAV	0.017 µM
Cc1cc(C)c(CS(=O)c2cccc[n+]2[O-])c(C)c1	cytopathic effect	RT-K103N	CEM	-	11 µg/mL
CC(C)CN(C[C@@H](O)[C@H](Cc1ccccc1)NC(=O)[C@@H](NC(=O)[C@@H](C)NC(C)(C)c1ccccc1)C(C)(C)C)S(=O)(=O)c1ccc2nc(N)sc2c1	-	-	MT-2	RF	<1 µM
C=C1C[C@@]23CC[C@H]4[C@@](C)(CCC[C@@]4(C)C(=O)O)[C@@H]2CC[C@@H]1C3	p24	-	H9	IIIB	>100 µg/mL
CCOCn1c(Cc2cccc(OCC=NO)c2)c(CC)c(=O)[nH]c1=O	cytopathic effect / MTT	-	MT-4	RT-K103N Y181C Mutant NNRTI-resistant	54 µM
CCCc1c(Cc2ccccc2)n(COC/C=C/c2ccccc2)c(=O)[nH]c1=O	cytopathic effect / MTT	RT-Y181C	MT-4	NNRTI-resistant (RT Y181C) N119	>100 µM
C=CCCc1cccc(Cc2c(CC)c(=O)[nH]c(=O)n2COCC=C)c1	cytopathic effect / MTT	-	MT-4	IIIB	0.2 µM
CCc1c(Sc2cc(C)cc(C)c2)n(COCc2ccccc2)c(=O)[nH]c1=O	syncytia	RT-L100I	CEM	IIIB (TIBO 82150) (RT-L100I)	0.002 µM
CCc1c(Cc2ccc3ccccc3c2)n(COCCO)c(=O)[nH]c1=O	-	-	MT-4	LAV	45.6 µM
CCc1c(Sc2cc(C)cc(C)c2)n(COCCO)c(=S)[nH]c1=O	syncytia	-	CEM	IIIB	0.004 µM
C=CCOCn1c(Cc2cccc(OCC=C)c2)c(CC)c(=O)[nH]c1=O	cytopathic effect / MTT	-	MT-4	IIIB	0.4 µM
CCOCn1c(Sc2cc(C)cc(C)c2)c(CC)c(=O)[nH]c1=O	syncytia	-	CEM	IIIB	0.004 µM
CC(C)CN(C[C@@H](O)[C@H](Cc1ccccc1)NC(=O)[C@@H](NC(=O)CNC(C)(C)c1ccccc1)C(C)(C)C)S(=O)(=O)c1ccc2nc(N)sc2c1	-	-	MT-2	RF	<1 µM
C[C@@]12CCC[C@@](C)(C=O)[C@H]1CC[C@@]13C[C@@H](CC[C@H]12)[C@](O)(CO)C3	p24	-	H9	IIIB	>100 µg/mL
Nc1nc(NC2CC2)c2ncn([C@H]3C=C[C@@H](CO)C3)c2n1	cytopathic effect / XTT	-	C8166	RT-K65R L74V M184V	11 µM
Cc1nc2ccccc2c(-c2cc(F)c3c(c2C)CCCO3)c1[C@H](OC(C)(C)C)C(=O)O	luminescence	D167E	MT-4	NL4-3	0.021 µM
CCOCn1c(Cc2ccccc2)c(C(C)C)c(=O)[nH]c1=O	cytopathic effect / MTT	-	MT-4	IIIB	0.02 µM
C=CCCc1cccc(Cc2[nH]c(=S)[nH]c(=O)c2CC)c1	cytopathic effect / MTT	-	MT-4	RT-K103N Y181C Mutant NNRTI-resistant	>80 µM
O=C1OCc2cc(=O)c(O)c(O)c(O)c21	cytopathic effect / absorbance	-	CEM-SS	RF	>50 µM
C=CCOc1cccc(Cc2nc(SC(C)C)nc(OC(C)C)c2CC)c1	cytopathic effect / MTT	-	MT-4	RT-Y181C Mutant NNRTI-resistant	>100 µM
C=C1CC23CCC4[C@](C)(CO)CCC[C@@]4(C)C2CC[C@H]1C3	p24	-	H9	IIIB	>100 µg/mL
C=CCOc1cccc(Cc2nc(SC)[nH]c(=O)c2CC)c1	cytopathic effect / MTT	-	MT-4	RT-K103N Y181C Mutant NNRTI-resistant	>80 µM
Cc1ccc(C)c(C(C)S(=O)(=O)c2c(C)ccc[n+]2[O-])c1	cytopathic effect	RT-K103N	CEM	-	12 µg/mL
CCCC[C@H](NC(=O)c1ccccc1SSc1ccccc1C(=O)N[C@@H](CCCC)C(=O)OC(C)(C)C)C(=O)OC(C)(C)C	cytopathic effect / XTT	-	CEM	IIIB	>16 µM
CCCc1c(Cc2cccc3ccccc23)n(COCC)c(=O)[nH]c1=O	-	-	CEM	LAV	0.275 µM

8 of the rows above, restated:

SMILES	method	mutations	cells	strain or isolate	result
O=C1OCc2cc(=O)c(O)c(O)c(O)c21	cytopathic effect / absorbance	-	CEM-SS	RF	>50 µM
CC(C)CN(C[C@@H](O)[C@H](Cc1ccccc1)NC(=O)[C@@H](NC(=O)CNC(C)(C)c1cccc(F)c1)C(C)(C)C)S(=O)(=O)c1ccc2ncccc2c1	-	-	MT-2	RF	<1 µM
Cc1cc(C)c(CS(=O)c2cccc[n+]2[O-])c(C)c1	cytopathic effect	RT-K103N	CEM	-	11 µg/mL
Cc1ccc(C)c(CS(=O)(=O)c2cccc[n+]2[O-])c1	syncytia	RT-E103K	CEM	IIIB	12 µg/mL
CCN(CC)CCOc1ccc(NC(=O)COc2ccccc2C(=O)c2ccc(OC)cc2)cc1	cytopathic effect	-	MT-4	RF	0.777 µM
O=C(c1ccccc1)c1cc(Cl)ccc1OCc1nc2ccccc2[nH]1	p24	-	C8166	RF	0.0821 µM
CCOCn1c(Sc2ccccc2)c(CC)c(=O)[nH]c1=S	syncytia	RT-Y181C	CEM	IIIB	1.5 µM
CCCc1c(Cc2cccc3ccccc23)n(COCC)c(=O)[nH]c1=O	-	-	CEM	LAV	0.275 µM

Conditions beyond the fields shown may differ between rows. An empty or dashed field is not shown.